Results reported in patent publication US20230265069A1, “Small Molecule Inhibitors That Block the Budding of Enveloped Viruses” (priority 2020, published 2023).

What was measured:
[1] = tested on: HIV-1; conditions: read-out: EC50, release of HIV-1 from 293T cells, p24 in media
[2] = tested on: HSV-2; test: HSV-2 release from infected Vero cells, plaque assay; conditions: 24 hours after infection

| Substance | EC50 [1] | Drop of HSV-2 in released infectious virus [2] |
| --- | --- | --- |
| Ilaprazole | ≤ 1 µM | – |
| Tenatoprazole | – | 4-5 log |
